Assay [1] deals with Plasmodium falciparum. The assay can be described thus: Inhibition of Plasmodium falciparum CDPK2 assessed as remaining activity at 1 uM incubated for 2 hrs by luciferin-reagent based luminometer analysis relative to control.
For assay [2], the system named is Plasmodium falciparum. The assay can be described thus: Inhibition of Plasmodium falciparum NEK1 assessed as remaining activity at 1 uM incubated for 2 hrs by luciferin-reagent based luminometer analysis relative to control.
Assay [3] concerns Plasmodium falciparum. The assay is described as follows: Inhibition of Plasmodium falciparum ARK1 assessed as remaining activity at 1 uM incubated for 2 hrs by luciferin-reagent based luminometer analysis relative to control.
Assay [4] relates to Plasmodium falciparum. The assay can be described thus: Inhibition of Plasmodium falciparum PKB assessed as remaining activity at 1 uM incubated for 2 hrs by luciferin-reagent based luminometer analysis relative to control.
Assay [5] has as its system Plasmodium falciparum. The assay is described as follows: Inhibition of Plasmodium falciparum ARK3 assessed as remaining activity at 1 uM incubated for 2 hrs by luciferin-reagent based luminometer analysis relative to control.
Assay [6] deals with Plasmodium falciparum. The assay is described as follows: Inhibition of Plasmodium falciparum PK9 assessed as remaining activity at 1 uM incubated for 2 hrs by luciferin-reagent based luminometer analysis relative to control.
In assay [7] the test system is Plasmodium falciparum. The assay is described as follows: Inhibition of Plasmodium falciparum CDPK5 assessed as remaining activity at 1 uM incubated for 2 hrs by luciferin-reagent based luminometer analysis relative to control.
The test system of assay [8] is Plasmodium falciparum. The assay can be described thus: Inhibition of Plasmodium falciparum NEK3 assessed as remaining activity at 1 uM incubated for 2 hrs by luciferin-reagent based luminometer analysis relative to control.

Structures are written as SMILES.

On to `COc1cc(N2CCOCC2)ccc1Nc1ncc(Cl)c(Nc2ccccc2NS(C)(=O)=O)n1`, for which the Activity in the assay on Plasmodium falciparum [1] worked out at 78%; with Plasmodium falciparum [2], 85%; in the assay on Plasmodium falciparum [3] it was 53%; in the assay on Plasmodium falciparum [4], 11%; in the assay with Plasmodium falciparum [5], 50%; in the assay on Plasmodium falciparum [6], 43%. The Activity in the assay on Plasmodium falciparum [7] was 97%; with Plasmodium falciparum [8], 34%.

On to `CS(=O)(=O)Nc1ccccc1Nc1nc(Nc2ccc(N3CCOCC3)c(C(F)(F)F)c2)ncc1Cl`, for which the Activity worked out at 23% in the assay on Plasmodium falciparum [3]; 0% with Plasmodium falciparum [4]; 47% in the assay with Plasmodium falciparum [5]; 15% in the assay on Plasmodium falciparum [6]; 8% in the assay with Plasmodium falciparum [8].

`COc1cc(N2CCOCC2)ccc1Nc1ncc(-c2cnn(C)c2)c(Nc2ccccc2NS(C)(=O)=O)n1`: the Activity was found to be 89% with Plasmodium falciparum [3]; 97% in the assay on Plasmodium falciparum [4]; 95% in the assay on Plasmodium falciparum [5]; 100% in the assay with Plasmodium falciparum [6]; 42% in the assay on Plasmodium falciparum [8].

For the molecule `COc1cc(N2CCOCC2)ccc1Nc1ncc(Cl)c(Nc2ccccc2NS(=O)(=O)C2CC2)n1`, the Activity with Plasmodium falciparum [3] is 46%; with Plasmodium falciparum [4] it was 23%; in the assay with Plasmodium falciparum [5], 36%; in the assay on Plasmodium falciparum [6] it was 61%; in the assay with Plasmodium falciparum [8], 48%.

On to `CCc1cnc(Nc2ccc(N3CCOCC3)cc2OC)nc1Nc1ccccc1NS(C)(=O)=O`, for which the Activity in the assay with Plasmodium falciparum [3] stood at 100%; with Plasmodium falciparum [4], 16%; with Plasmodium falciparum [5] it was 81%; in the assay on Plasmodium falciparum [6], 79%; in the assay with Plasmodium falciparum [8], 24%.

Take `COc1cc(N2CCOCC2)ccc1Nc1ncc(C(N)=O)c(Nc2ccccc2NS(C)(=O)=O)n1`: the Activity in the assay with Plasmodium falciparum [3] was found to be 39%; in the assay on Plasmodium falciparum [4], 29%; with Plasmodium falciparum [5], 93%; in the assay with Plasmodium falciparum [6], 19%; in the assay on Plasmodium falciparum [8], 51%.
